From ChEMBL document CHEMBL1201862, “PubChem BioAssay data set” (2004)
Only a part is listed here, and it is no random draw. Only a part of the results of these assays is listed, not drawn at random.

Test: enhancers of HSV replication in host cells, fold increase, host cell viability (AID 1956); call rule not given here
Assay type: functional

SMILES | Conc @ Max Fold Incr
Cc1cc(SC(NC(=O)c2ccccc2)C(Cl)(Cl)Cl)nc(C(C)C)n1 (stereo unspecified) | inactive: 3.12 µM
